From patent US20130039943A1, “NOVEL METHOD” (priority 2010, published 2013)
Values joined by “and” are separate entries in the source; they are usually repeats but may differ in a detail not shown here. Identical values can stand only once. Marks after values point to notes of the source that are not given here.

What was measured:
Format in all cases: cell-based
[1] = test system: Influenza virus Wisconsin A strain produced on MDCK cells
Hepatitis A Virus (HAV) = test system: Hepatitis A Virus (HAV)
[2] = test system: Murine Leukaemia Virus (MuLV)
[3] = test system: Influenza virus Malaysia B strain produced on MDCK cells
[4] = test system: Influenza virus produced on MDCK cells
[5] = test system: Porcine Pseudorabies Virus (PRV)
[6] = test system: H5N1 influenza virus produced on EB66 cells

Compound | log TCID50/ml [1] | LVR (Hepatitis A Virus (HAV)) [log] | log TCID50/ml (Hepatitis A Virus (HAV)) [log TCID50/ml] | LVR [2] | log TCID50/ml [3] | viral titration reduction [4] | LVR [5] [log] | log TCID50/ml [5] [log TCID50/ml] | LVR [6] | log TCID50/ml [6]
O=C1CCO1 [BPL, beta-propiolactone] | ≦0.8 log TCID50/ml | 3.8 | 1.5 | 2.7 log and 2.8 log and 1.6 log | ≦1.8 log TCID50/ml | about 8 logs | 3.4 | 2.6 |  | 
Triton X-100 |  |  |  |  |  |  |  |  | 3.8*** log | 5.2 log TCID50/ml and 5.0 log TCID50/ml
